Pooled drug test results. Numbers come from NIAID ChemDB, via PubChem.

Common to all: whole-cell or culture tests; organism: HIV-1

Fold resistance: result on the changed form divided by that on wild type. Blank or dashed fields: not listed here. Conditions beyond the fields shown may differ between rows. ECn: concentration that inhibits the pathogen or its effect by n%.

SMILES | read-out | mutations | read by | strain | cell line | value
O=C1Nc2ccc(Cl)cc2[C@@](C#CC2CC2)(C(F)(F)F)N1 | EC90 | RT-Y188C | - | - | - | <0.012 µM
CC(C)C1=C2[C@H]3CC[C@@H]4[C@@]5(C)CC[C@H](OC(=O)[C@H]6C[C@@H](C(=O)O)C6(C)C)C(C)(C)[C@@H]5CC[C@@]4(C)[C@]3(C)CC[C@@]2([C@@H](O)CNC(=O)C(C)(C)NC(=O)c2ncc[nH]2)CC1=O | EC50 | - | p24 / ELISA | 92HT599 | MT-2 | <1 µM
O=C1Nc2ccc(Cl)cc2[C@@](/C=C/C2CC2)(C(F)(F)F)N1 | EC90 | RT-Y188L | - | - | - | ~0.08 µM
Cc1cc(S(N)(=O)=O)ccc1NC(=O)COc1ccc(Cl)cc1C(=O)c1cccc(C#N)n1 | fold resistance | RT-Y181C | β-galactosidase | HXB2 | HeLa + HELA CD4+ | ~1
COc1ccc(S(=O)(=O)N(CC(C)C)C[C@@H](O)CCN(CC2CCCC2)S(=O)(=O)Cc2cccc3nc(C)oc23)cc1 | EC90 | - | p24 | IIIB | CEM | 1 µM
Cc1cc(S(N)(=O)=O)ccc1NC(=O)COc1ccc(Cl)cc1C(=O)c1cc(F)cc(C(F)(F)F)c1 | fold resistance | RT-G190A | β-galactosidase | HXB2 | HeLa + HELA CD4+ | ~1
Cc1ccc(C)n1-c1ccc(C(=O)O)c(O)c1 | EC90 | - | luciferase / cell fusion | 92US657 R5 CLADE B | PBMC/5.25M7 | 165 µM
COc1ccc(S(=O)(=O)N(CC(C)C)CC(O)C(=O)N2CSC[C@H]2C(=O)NC(C)(C)C)cc1 | EC90 | - | p24 | IIIB | CEM | 1 µM
Cc1cc(C#N)cc(C(=O)c2cc(Cl)ccc2OCC(=O)Nc2ccc(S(N)(=O)=O)nc2C)c1 | fold resistance | RT-V106A Y181C | β-galactosidase | HXB2 | HeLa + HELA CD4+ | ~1
CC(C)C1=C2[C@H]3CC[C@@H]4[C@@]5(C)CC[C@H](OC(=O)[C@H]6C[C@@H](C(=O)O)C6(C)C)C(C)(C)[C@@H]5CC[C@@]4(C)[C@]3(C)CC[C@@]2(CCNC(=O)c2ccc(N3CCOCC3)cc2)CC1=O | EC50 | - | p24 / ELISA | 92HT599 | MT-2 | <1 µM
Cc1cc(S(N)(=O)=O)ccc1NC(=O)COc1ccc(Cl)cc1C(=O)c1cccc(C#N)c1 | fold resistance | RT-G190A | β-galactosidase | HXB2 | HeLa + HELA CD4+ | ~1
CC(C)C1=C2[C@H]3CC[C@@H]4[C@@]5(C)CC[C@H](OC(=O)[C@H]6C[C@@H](C(=O)O)C6(C)C)C(C)(C)[C@@H]5CC[C@@]4(C)[C@]3(C)CC[C@@]2([C@@H](O)CNCC(CN)NC(=O)c2ccc(Cl)cc2)CC1=O | EC50 | - | p24 / ELISA | 92HT599 | MT-2 | <1 µM
Cc1cc(C#N)cc(C(=O)c2cc(Cl)ccc2OCC(=O)Nc2ccc(S(N)(=O)=O)cc2C)c1 | fold resistance | RT-P225H | β-galactosidase | HXB2 | HeLa + HELA CD4+ | ~1
Cc1cncc(C(=O)NC(C)(C)CNC(=O)C[C@@]23CC[C@]4(C)[C@H](CC[C@@H]5[C@@]6(C)CC[C@H](OC(=O)[C@H]7C[C@@H](C(=O)O)C7(C)C)C(C)(C)[C@@H]6CC[C@]54C)C2=C(C(C)C)C(=O)C3)n1 | EC50 | - | p24 / ELISA | 92HT599 | MT-2 | <1 µM
Cc1cc(C)cc(C(=O)c2cc(Cl)ccc2OCC(=O)Nc2ccc(S(N)(=O)=O)cc2C)c1 | fold resistance | RT-K103N | β-galactosidase | HXB2 | HeLa + HELA CD4+ | ~1
Cc1ccc(C(=O)NC(C)(C)CNC(=O)C[C@@]23CC[C@]4(C)[C@H](CC[C@@H]5[C@@]6(C)CC[C@H](OC(=O)[C@H]7C[C@@H](C(=O)O)C7(C)C)C(C)(C)[C@@H]6CC[C@]54C)C2=C(C(C)C)C(=O)C3)cn1 | EC50 | - | p24 / ELISA | 92HT599 | MT-2 | <1 µM
Cc1cc(S(N)(=O)=O)ccc1NC(=O)COc1ccc(Cl)cc1C(=O)c1cc(F)cc(F)c1 | EC50 | RT-V108I Y181C | β-galactosidase | HXB2 | HeLa + HELA CD4+ | <0.01 µM
COc1ccc(S(=O)(=O)N(CC(C)C)C[C@@H](O)CCN(CC2CCCC2)S(=O)(=O)CC2NC(=O)NC2=O)cc1 | EC90 | - | p24 | IIIB | CEM | 1 µM
CC(C)C1=C2[C@H]3CC[C@@H]4[C@@]5(C)CC[C@H](OC(=O)[C@H]6C[C@@H](C(=O)O)C6(C)C)C(C)(C)[C@@H]5CC[C@@]4(C)[C@]3(C)CC[C@@]2([C@@H](O)CNCC2CCCCC2)CC1=O | EC50 | - | p24 / ELISA | 92HT599 | MT-2 | <1 µM
O=S(=O)(c1ccccc1)N(CCc1ccccc1)CC(O)CN(CC1CCCC1)S(=O)(=O)c1ccccc1 | EC90 | - | p24 | IIIB | CEM | 1 µM
CC(C)C1=C2[C@H]3CC[C@@H]4[C@@]5(C)CC[C@H](OC(=O)[C@H]6C[C@@H](C(=O)O)C6(C)C)C(C)(C)[C@@H]5CC[C@@]4(C)[C@]3(C)CC[C@@]2(CC(=O)NCC(C)(CCN)NC(=O)c2ccc(Cl)cc2)CC1=O | EC50 | - | p24 / ELISA | 92HT599 | MT-2 | <1 µM

For reference, 3 entries again:

SMILES	read-out	mutations	read by	strain	cell line	value
CC(C)C1=C2[C@H]3CC[C@@H]4[C@@]5(C)CC[C@H](OC(=O)[C@H]6C[C@@H](C(=O)O)C6(C)C)C(C)(C)[C@@H]5CC[C@@]4(C)[C@]3(C)CC[C@@]2([C@@H](O)CNCC2CCCCC2)CC1=O	EC50	-	p24 / ELISA	92HT599	MT-2	<1 µM
Cc1cc(S(N)(=O)=O)ccc1NC(=O)COc1ccc(Cl)cc1C(=O)c1cc(F)cc(C(F)(F)F)c1	fold resistance	RT-G190A	β-galactosidase	HXB2	HeLa + HELA CD4+	~1
Cc1cncc(C(=O)NC(C)(C)CNC(=O)C[C@@]23CC[C@]4(C)[C@H](CC[C@@H]5[C@@]6(C)CC[C@H](OC(=O)[C@H]7C[C@@H](C(=O)O)C7(C)C)C(C)(C)[C@@H]6CC[C@]54C)C2=C(C(C)C)C(=O)C3)n1	EC50	-	p24 / ELISA	92HT599	MT-2	<1 µM